According to patent US20070219243A1, “Method for improving the pharmacokinetics of HIV integrase inhibitors” (priority 2005, published 2007):

Details: in vivo

emtricitabine/tenofovir disoproxil fumarate [FTC/TDF]
Drug-drug interaction upon co-administration: no clinically relevant drug-drug interaction
